Experimental findings from PMC5068707 (PLoS Pathogens, 2016) are described below.

The target in the experiment is T1, Ebola virus VP30 C-terminal domain (amino acids 139–288) (Ebola virus (EBOV), UniProt Q05323 139-288).
T1 sequence: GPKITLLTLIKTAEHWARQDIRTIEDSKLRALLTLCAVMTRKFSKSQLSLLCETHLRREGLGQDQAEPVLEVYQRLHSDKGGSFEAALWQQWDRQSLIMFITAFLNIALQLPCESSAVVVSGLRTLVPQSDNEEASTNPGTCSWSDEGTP
The note with it: both partners purified.

As to RTPTVAPPAPVYRDHSEK (biotinylated (AviTag, co-expressed E. coli biotin ligase)) [biotinylated EBOV NP peptide 600–617], the binding result is reported as “binds”.
